A mixed list of measured activities; the numbers were collected in NIAID ChemDB.

Common to all: growth or infection tests; species: Mycobacterium avium

ECn is the concentration giving n% inhibition of infection, replication or growth. Rows are shuffled and stem from different studies. Blank or dashed fields: not listed here. MIC50, MIC90 and the like: level of inhibition, or share of isolates inhibited.

SMILES	setting	cell line	method	strain	measure	value
Cc1c(CN2CCSCC2)cc(-c2ccccc2F)n1-c1ccccc1	-	-	-	103317	MIC	>16 µg/mL
N/C(=N\NC(CC(=O)c1ccc(-c2ccccc2)cc1)c1cccnc1)c1ccccn1	-	-	-	17 strains	MIC90	320 µg/mL
Clc1ccc(C(Cn2ccnc2)OCc2cccc3ccccc23)c(Cl)c1	-	-	-	CIP103317	MIC	1 µg/mL
Cc1ccc(C(=O)CC(N/N=C(\N)c2ccccn2)c2cccnc2)cc1	-	-	-	17 strains	MIC90	320 µg/mL
CCCCc1ccc(NC(=O)CCC(=O)Nc2ccc(CCCC)cc2)cc1	-	-	-	NO 80/72	MIC	63 µM
N=C(N)N1N=C(/C=C/c2ccccc2)CC1c1ccccc1	-	-	resazurin	-	MIC	2.15 µM
CC(C)(C)c1ccc(COC(Cn2ccnc2)c2ccccc2)cc1	-	-	-	CIP103317	MIC	4 µg/mL
O=c1oc2ccccc2c(=O)n1-c1cccc(F)c1	-	-	-	CNCTC MY330/88	MIC	125 µM
N=C(N)N1N=C(/C=C/c2ccc(Cl)cc2)CC1c1ccc(Cl)cc1	-	-	resazurin	-	MIC	1.74 µM
O=c1nc2c(ncn2Cc2ccccc2)c(C#Cc2ccccc2)n1Cc1ccccc1	-	VERO	-	-	EC50	<12.5 µg/mL
C/C=C/Nc1nc(C(N)=S)cnc1C(N)=O	-	-	-	80/72	MIC	50 µg/mL
CC(C)c1ccc(NC(=O)CCC(=O)Nc2ccc(C(C)C)cc2)cc1	-	-	-	NO 80/72	MIC	63 µM
CN1CCN(c2c(F)cc3c(=O)c(C(=O)O)cn(CCF)c3c2F)CC1	-	-	-	ATCC 15769	MIC90	100 µg/mL
O=C(Nc1cncc(Cl)n1)c1ccccc1O	-	-	resazurin	-	MIC	>100 µg/mL
C[C@H]1COc2c(N3CCN(C)CC3)c(F)cc3c(=O)c(C(=O)O)cn1c23	-	-	-	25-3	MIC	0.5 µg/mL
Cc1ccc(O)c(C(=O)NCc2ccc(C(C)(C)C)cc2)c1	-	-	-	MY330/88	MIC	16 µg/mL
N/C(=N\NC(CC(=O)c1ccc(Cl)cc1)c1cccnc1)c1ccccn1	-	-	-	17 strains	MIC50	32 µg/mL
O=C(Oc1ccc(Cl)cc1C(=O)Nc1cccc(F)c1)c1cnccn1	14 d	-	-	330/88	MIC	8 µM
Cc1nc2scc(-c3ccco3)c2c(=O)n1/N=C/c1ccccc1	-	-	-	CNCTC MY330/88	MIC	50 µM
O=C(NCc1ccc(Cl)c(Cl)c1)c1ncccc1S	-	-	-	CNCTC MY330/88	MIC	16 µM
CC(=O)NC[C@H]1CN(c2ccc(N3CCSCC3)c(F)c2)C(=O)O1	-	-	-	LPR	MIC	4 µg/mL
Cc1c(F)c(N2CCNC(C)C2)cc2c1c(=O)c(C(=O)O)cn2C1CC1	-	-	-	18 strains	MIC50	6.25 µg/mL
Cc1ccc(C(Cn2ccnc2)OC/C=C/c2ccccc2)cc1	-	-	-	CIP103317	MIC	0.5 µg/mL
O=C(Nc1ccccc1N1CCSCC1)c1ccc(Cl)cc1	-	-	-	103317	MIC	92.3 µM
O=C(NCc1ccc(Br)cc1)c1cc(Cl)ccc1O	-	-	-	MY330/88	MIC	32 µg/mL
Cc1c(C)c(C)[c-](C)c1C.N[C@H](C(=O)[O-])c1ccccc1.[Cl][Rh+2]	-	-	-	A5	MIC	>250 µg/mL
Cc1cccc(C(=O)CC(N/N=C(\N)c2ccccn2)c2cccnc2)c1	-	-	-	17 strains	MIC50	160 µg/mL
Cc1c(CN2CCN(C)CC2)cc(-c2ccccc2F)n1-c1ccccc1	-	-	-	103317	MIC	>16 µg/mL
CC(C)(C)c1ccc(COC(Cn2ccnc2)c2ccc(Cl)cc2)cc1	-	-	-	CIP103317	MIC	1 µg/mL
N/C(=N\NC(CC(=O)c1cccc(Br)c1)c1cccnc1)c1ccccn1	-	-	-	17 strains	MIC90	160 µg/mL
O=c1oc2ccc(F)cc2c(=O)n1-c1ccc(Cl)cc1	-	-	-	CNCTC MY330/88	MIC	8 µM
CN1CCN(c2ccc(NCc3ccc(-c4ccccc4)cc3)cc2)CC1	-	-	-	103317	MIC	8 µg/mL
O=C(Nc1cccc(N2CCSCC2)c1)c1ccc(-c2ccccc2)cc1	-	-	-	103317	MIC	82.5 µM
Cc1ccc(CNC(=O)c2ncccc2O)cc1	-	-	-	CNCTC MY330/88	MIC	125 µM
O=c1oc2ccc(F)cc2c(=O)n1-c1cccc(Cl)c1	-	-	-	CNCTC MY330/88	MIC	31 µM
N/C(=N\NC(CC(=O)c1ccc(Cl)cc1)c1ccccn1)c1ccccn1	-	-	-	17 strains	MIC50	32 µg/mL
CC(C)(C)c1ccc(COC(Cn2ccnc2)c2ccc(Cl)cc2Cl)cc1	-	-	-	CIP103317	MIC	2 µg/mL
O=C(CCC(=O)Nc1ccc(Cl)c(Cl)c1)Nc1ccc(Cl)c(Cl)c1	-	-	-	NO 80/72	MIC	250 µM
Cc1c(CN2CCSCC2)cc(-c2ccccc2)n1-c1cccc2ccccc12	-	-	-	103317	MIC	>16 µg/mL
O=C(Oc1ccc(Cl)cc1C(=O)Nc1ccc(Cl)cc1)c1cnccn1	14 d	-	-	330/88	MIC	4 µM
c1ccc(C(Cn2ccnc2)OCc2cccc3ccccc23)cc1	-	-	-	CIP103317	MIC	2 µg/mL
Clc1ccc(C(Cn2ccnc2)OCc2ccc(-c3ccccc3)cc2)c(Cl)c1	-	-	-	103317	MIC	9.47 µM
N/C(=N\NC(CC(=O)c1ccc(Cl)c(Cl)c1)c1cccnc1)c1ccccn1	-	-	-	17 strains	MIC50	32 µg/mL
O=C(CCC(=O)Nc1cccc(Cl)c1)Nc1cccc(Cl)c1	-	-	-	NO 80/72	MIC	>1000 µM
Clc1ccc(C(Cn2ccnc2)NC/C=C/c2ccccc2)cc1	-	-	-	103317	MIC	94.7 µM
O=C(Nc1ccc(Br)cc1)c1ncccc1O	-	-	-	CNCTC MY330/88	MIC	62.5 µM
C(=C\c1ccccc1)/COC(Cn1ccnc1)c1ccccc1	-	-	-	CIP103317	MIC	0.5 µg/mL
c1ccc(CO/N=C(\Cn2ccnc2)c2ccccc2)cc1	-	-	-	103317	MIC	3.43 µM
NNC(=O)c1ccncc1	-	-	-	MY330/88	MIC	>250 µg/mL
CC(=O)Nn1c(C)nc2scc(-c3ccco3)c2c1=O	-	-	-	CNCTC MY330/88	MIC	86 µM
CC(C)(C)c1ccc(COC(Cn2ccnc2)c2ccccc2)cc1	-	-	-	103317	MIC	2.99 µM
O=c1oc2ccc(Cl)cc2c(=O)n1-c1ccc(Cl)c(Cl)c1	-	-	-	CNCTC MY330/88	MIC	8 µM
O=C(Nc1ccc(C(F)(F)F)cc1)c1ncccc1O	-	-	-	CNCTC MY330/88	MIC	62.5 µM
Cc1c(CN2CCSCC2)cc(-c2ccccc2)n1-c1ccccc1F	-	-	-	103317	MIC	>16 µg/mL
Clc1ccc(CNc2cccc(N3CCOCC3)c2)cc1	-	-	-	103317	MIC	>16 µg/mL
Cc1nc2scc(-c3ccco3)c2c(=O)n1/N=C/c1ccco1	-	-	-	CNCTC MY330/88	MIC	54 µM
CCOC(=O)c1c(NC(=O)c2c(F)c(F)c(F)c(F)c2F)sc2c1CCNC2	-	-	turbidity	-	MIC	200 µM
C=C[C@](C)(O)CC[C@H]1C(=C)CC[C@H]2C(C)(C)[C@@H](O)CC[C@]12C	-	-	-	-	MIC	>100 µg/mL
O=C(NCc1cccc(Cl)c1)c1ncccc1O	-	-	-	CNCTC MY330/88	MIC	125 µM
C=C[C@@](C)(CC[C@H]1C(=C)CC[C@H]2C(C)(C)[C@@H](OC(C)=O)CC[C@]12C)OC(C)=O	-	-	-	-	MIC	>100 µg/mL
Cc1nc2scc(-c3ccco3)c2c(=O)n1NC(=O)c1ccc([N+](=O)[O-])cc1	-	-	-	CNCTC MY330/88	MIC	6 µM
COc1ccc(O)c(C(=S)NCc2ccccc2)c1	-	-	-	MY330/88	MIC	4 µg/mL
CCS/C(N)=N\N=C\c1ccc(C(F)(F)F)cc1	-	-	-	ATCC 19421	MIC	0.78 µg/mL
CCCNc1nc(C(N)=S)cnc1C(N)=O	-	-	-	80/72	MIC	>100 µg/mL
c1ccc(-c2ccc(CNc3cccc(N4CCSCC4)c3)cc2)cc1	-	-	-	103317	MIC	>16 µg/mL
CC[C@@]1(O)OC(=O)[C@H](C)[C@@H](O[C@H]2C[C@@](C)(OC)[C@@H](O)[C@H](C)O2)[C@H](C)[C@@H](O[C@@H]2O[C@H](C)C[C@H](N(C)C)[C@H]2O)[C@](C)(OC)C[C@@H](C)C(=O)[C@H](C)[C@@H](O)[C@]1(C)O	-	Human monocyte-derived macrophages	agar	-	MIC	32 µg/mL
Oc1ccc(Cl)cc1C(=S)NCc1ccc(Br)cc1	-	-	-	MY330/88	MIC	2 µg/mL
CCCCN(CCCC)c1nc(C(N)=S)cnc1C(N)=O	-	-	-	80/72	MIC	>100 µg/mL
FC(F)(F)c1cc(-c2ccccc2)nc(N2N=C(/C=C/c3ccc(Cl)cc3)CC2c2ccc(Cl)cc2)n1	-	-	resazurin	-	MIC	>20.6 µM
O=C(Oc1cc(Cl)ccc1C(=O)Nc1cccc(F)c1)c1cnccn1	21 d	-	-	330/88	MIC	16 µM
CC(=O)Nc1ccc(/C=N/NC(N)=S)cc1	-	-	-	3350	MIC	0.02 µg/mL
Cc1ccc(C(=O)Nn2c(C)nc3scc(-c4ccco4)c3c2=O)cc1	-	-	-	CNCTC MY330/88	MIC	40 µM
N#C/C(=C\c1ccccc1)n1nnc2ccccc21	-	-	-	-	EC50	<12.5 µg/mL
O=C(Oc1ccc(Cl)cc1C(=O)Nc1cccc(C(F)(F)F)c1)c1cnccn1	14 d	-	-	330/88	MIC	8 µM
Clc1ccc(/C(Cn2ccnc2)=N/OCc2ccccc2)c(Cl)c1	-	-	-	103317	MIC	1.39 µM
c1ccc(-c2ccc(COC(Cn3ccnc3)c3ccccc3)cc2)cc1	-	-	-	CIP103317	MIC	1 µg/mL
Clc1ccc(/C(Cn2ccnc2)=N\OC/C=C/c2ccccc2)cc1	-	-	-	103317	MIC	22.7 µM
Cc1c(CN2CCN(C)CC2)cc(-c2cccc3ccccc23)n1-c1ccccc1	-	-	-	103317	MIC	16 µg/mL
Cc1nc2scc(-c3ccco3)c2c(=O)n1NC(=O)c1ccco1	-	-	-	CNCTC MY330/88	MIC	40 µM
Cc1ccc(C(=O)CC(N/N=C(\N)c2ccccn2)c2ccncc2)cc1	-	-	-	17 strains	MIC50	160 µg/mL
Cc1ccc(O)c(C(=S)NCc2ccc(Cl)cc2)c1	-	-	-	MY330/88	MIC	0.5 µg/mL
Cc1nc2scc(-c3ccco3)c2c(=O)n1/N=C/c1ccc([N+](=O)[O-])cc1	-	-	-	CNCTC MY330/88	MIC	6 µM
C=C[C@](C)(O)CC[C@H]1C(=C)CC[C@H]2C(C)(C)[C@@H](OC(C)=O)CC[C@]12C	-	-	-	-	MIC	>100 µg/mL
Cc1cccc(O)c1C(=O)NCc1ccc(Cl)cc1	-	-	-	MY330/88	MIC	32 µg/mL

For reference, 11 entries again:

| SMILES | setting | cell line | method | strain | measure | value |
|---|---|---|---|---|---|---|
| O=C(Oc1ccc(Cl)cc1C(=O)Nc1cccc(C(F)(F)F)c1)c1cnccn1 | 14 d | - | - | 330/88 | MIC | 8 µM |
| Cc1c(CN2CCSCC2)cc(-c2ccccc2)n1-c1cccc2ccccc12 | - | - | - | 103317 | MIC | >16 µg/mL |
| CC[C@@]1(O)OC(=O)[C@H](C)[C@@H](O[C@H]2C[C@@](C)(OC)[C@@H](O)[C@H](C)O2)[C@H](C)[C@@H](O[C@@H]2O[C@H](C)C[C@H](N(C)C)[C@H]2O)[C@](C)(OC)C[C@@H](C)C(=O)[C@H](C)[C@@H](O)[C@]1(C)O | - | Human monocyte-derived macrophages | agar | - | MIC | 32 µg/mL |
| O=C(Oc1cc(Cl)ccc1C(=O)Nc1cccc(F)c1)c1cnccn1 | 21 d | - | - | 330/88 | MIC | 16 µM |
| C=C[C@@](C)(CC[C@H]1C(=C)CC[C@H]2C(C)(C)[C@@H](OC(C)=O)CC[C@]12C)OC(C)=O | - | - | - | - | MIC | >100 µg/mL |
| O=C(Nc1ccccc1N1CCSCC1)c1ccc(Cl)cc1 | - | - | - | 103317 | MIC | 92.3 µM |
| N/C(=N\NC(CC(=O)c1ccc(Cl)c(Cl)c1)c1cccnc1)c1ccccn1 | - | - | - | 17 strains | MIC50 | 32 µg/mL |
| Clc1ccc(C(Cn2ccnc2)OCc2ccc(-c3ccccc3)cc2)c(Cl)c1 | - | - | - | 103317 | MIC | 9.47 µM |
| O=C(NCc1ccc(Br)cc1)c1cc(Cl)ccc1O | - | - | - | MY330/88 | MIC | 32 µg/mL |
| O=C(CCC(=O)Nc1cccc(Cl)c1)Nc1cccc(Cl)c1 | - | - | - | NO 80/72 | MIC | >1000 µM |
| COc1ccc(O)c(C(=S)NCc2ccccc2)c1 | - | - | - | MY330/88 | MIC | 4 µg/mL |